This passage reports Km results from article PMC11099021, “Mycobacterial biotin synthases require an auxiliary protein to convert dethiobiotin into biotin” (Nature Communications, 2024).

This data set concerns C[C@@H]1NC(=O)N[C@@H]1CCCCCC(=O)O. Description: purified protein. The following applies: pH 8.0; 25.0 °C.

One may read the Km as the concentration of substrate that gives half-maximal velocity. As to “BioB.tb-BsaP (Mycobacterium tuberculosis H37Rv)”, the Km was found to be 7 µM.
